# pIC50: −log10 of the molar value. Read-outs that look alike come from different tables or passages of the source.
# What was measured:
# MCF7 cells = assay: Cytotoxicity dose response (CellTiter-Glo, 48 h); assay type: cell-based, human
# MDA-MB-231 cells = assay: Cytotoxicity dose response (CellTiter-Glo, 48 h); assay type: cell-based, human; details: single agent, MDA-MB-231, 48 h
# MDA-MB-468 cells [1] = assay: Cytotoxicity dose response (CellTiter-Glo, 48 h); assay type: cell-based, human
# MCF 10A (normal cells) = assay: Cytotoxicity dose response (CellTiter-Glo, 48 h); assay type: cell-based, human; details: for pIC50: single agent, MCF 10A normal cells, 48 h
# MDA-MB-436 cells = assay: Cytotoxicity dose response (CellTiter-Glo, 48 h); assay type: cell-based, human; details: single agent, MDA-MB-436, 48 h
# MDA-MB-468 cells [2] = details: cited from earlier work
# MDA-MB-468 cells [3] = assay: Alkaline comet assay (DNA damage); assay type: cell-based, human; details: individual maximum safe doses; stated for all four cell lines alike
# U-87 MG cells = assay: Cytotoxicity dose response (CellTiter-Glo, 48 h); assay type: cell-based; details: for pIC50: single agent, 48 h
# [4] = system: MDA-MB-468 breast cancer xenograft; assay: In vivo xenograft efficacy study; set-up: species or system immune-deficient female nude mice; details: Vitamin C 500 mg/kg, FAN-NM-CH3 3 mg/kg
# MDA-MB-468 cells [5] = details: FAN-NM-CH3 at a dose of 5 M (so in the source)
compound,measurement,setting,value
Cc1cc(N(CCCl)CCCl)ccc1B(O)O,maximum safe dose,MCF7 cells; MCF7,2 µM
same,pIC50,"MCF7 cells; single agent, MCF7, 48 h",5.18
same,pIC50,MDA-MB-231 cells,5.46
same,MSD (Maximum Safe Dose),"MDA-MB-468 cells [1]; Cancer Cells (MDA-MB-468), no discernible toxicity",1 µM
same,pIC50,"MDA-MB-468 cells [1]; single agent, MDA-MB-468 cancer cells, 48 h",5.52
same,MSD (Maximum Safe Dose),"MCF 10A (normal cells); Normal Cells (MCF 10A), no discernible toxicity",6 µM
same,pIC50,MCF 10A (normal cells),4.32
same,pIC50,MCF 10A (normal cells); listed as Prodrug,4.32
same,pIC50,MDA-MB-436 cells,5.44
same,pIC50,"MDA-MB-468 cells [2]; MDA-MB-468 cell line, earlier reported values",5.51
same,toxicity relative to melphalan,"MDA-MB-468 cells [2]; times more toxic than melphalan, MDA-MB-468",16
same,potency/toxicity relative to chlorambucil,"MDA-MB-468 cells [2]; times more toxic/potent than chlorambucil, MDA-MB-468",10
same,observable DNA damage,MDA-MB-468 cells [3],did not show any observable DNA damage
same,maximum safe dose,U-87 MG cells,5 µM
same,pIC50,U-87 MG cells,4.61
same,pIC50,U-87 MG cells; listed as Prodrug,4.61
same,effect on tumor size,"[4]; after 3 weeks of IP treatment, combination with Vitamin C 1 h before, vs vehicle",observable inhibitory effects on the tumor size
same,signs of toxicity,"[4]; xenograft mice, IP",neither of the groups showed any signs of toxicity
same,toxicity,MDA-MB-468 cells [5],high toxicity

# Reference: patent publication US20260207641A1, “COMBINATION THERAPY FOR CANCER USING ROS-ACTIVATED PRODRUGS AND ROS-AMPLIFYING THERAPEUTICS” (UWM Research Foundation, Inc., priority 2023, published 2026)
